A mixed list of measured activities; the numbers were collected in NIAID ChemDB.

Common to all: tests in culture; organism: HIV-1; cell line: MT-2; read-out: EC90

ECn: concentration that inhibits the pathogen or its effect by n%. Blank or dashed fields: not listed here. Neighbouring rows are from separate reports.

structure | strain | read by | result
O=C(O)c1cc(-n2cccc2)ccc1Cl | SF2 X4R5 CLADE B | p24 | 9.13 µM
CCC#CC1(C(C)C)NS(=O)(=O)Nc2ccc(Cl)cc21 | RF |  | 0.691 µM
O=C(O)C[C@H]1C(=O)Nc2ccccc2-c2cccn21 | IIIB | cytopathic effect / XTT | >50 µg/mL
COCCNC(=O)[C@@H](NC(=O)[C@H](Cc1ccc(O)cc1)C[C@H](O)[C@H](Cc1ccccc1)NC(=O)OC(C)(C)C)C(C)C | MN | RT activity | 0.3 µM
CCCCC#CC1(C(F)(F)F)OC(=O)Nc2ccc([N+](=O)[O-])cc21 | RF |  | 0.00457 µM
CCCCN1C(=O)N(Cc2ccc3c(N)n[nH]c3c2)[C@H](Cc2ccccc2)[C@H](O)[C@@H](O)[C@H]1Cc1ccccc1 | RF |  | <1 µM
COCCCNC(=O)[C@@H](NC(=O)[C@H](Cc1ccc(OC)c(OC)c1OC)C[C@H](O)[C@H](Cc1ccccc1)NC(=O)OC(C)(C)C)C(C)C | MN | RT activity | 0.03 µM
CCCC#CC1(C(F)(F)F)OC(=O)Nc2ccc([N+](=O)[O-])cc21 | RF |  | 0.00223 µM
CCOCCNC(=O)[C@@H](NC(=O)[C@H](Cc1ccc(OC)c(OC)c1OC)C[C@H](O)[C@H](Cc1ccccc1)NC(=O)OC(C)(C)C)C(C)C | MN | RT activity | 0.03 µM
O=C1Cn2cccc2-c2ccccc2N1 | IIIB | cytopathic effect / XTT | >50 µg/mL
Nc1n[nH]c2ccc(CN3C(=O)N(CC4CC4)[C@H](Cc4ccccc4)[C@H](O)[C@@H](O)[C@H]3Cc3ccccc3)cc12 | RF |  | 0.114 µM
CC(C)C#CC1(C(C)C)NS(=O)(=O)Nc2ccc(Cl)cc21 | RF |  | 0.643 µM
Nc1n[nH]c2ccc(CN3C(=O)N(CC4CCC4)[C@H](Cc4ccccc4)[C@H](O)[C@@H](O)[C@H]3Cc3ccccc3)cc12 | RF |  | 0.018 µM
O=C1Nc2ccccc2-c2cccn2[C@H]1Cc1ccc(O)cc1 | IIIB | cytopathic effect / XTT | >23 µg/mL
CC(C)C#CC1(C2CC2)NS(=O)(=O)Nc2ccc(Cl)cc21 | RF |  | 0.182 µM
COc1cc(C[C@H](C[C@H](O)[C@H](Cc2ccccc2)NC(=O)OC(C)(C)C)C(=O)N[C@H](C(=O)N[C@@H](Cc2ccccc2)C(=O)N2CCOCC2)C(C)C)cc(OC)c1OC | MN | RT activity | 1 µM
O=C1Nc2ccc(Cl)cc2[C@@](/C=C/C2CC2)(C(F)(F)F)N1 | RF | plaque count / virus yield | 0.0019 µM
CNc1n[nH]c2ccc(CN3C(=O)N(Cc4ccc5[nH]nc(NC)c5c4)[C@H](Cc4ccccc4)[C@H](O)[C@@H](O)[C@H]3Cc3ccccc3)cc12 | RF |  | 0.0279 µM
O=Cc1ccc2n1[C@@H](Cc1ccccc1)C(=O)Nc1ccccc1-2 | IIIB | cytopathic effect / XTT | >2.5 µg/mL
COc1ccc(C[C@H](C[C@H](O)[C@H](Cc2ccccc2)NC(=O)OC(C)(C)C)C(=O)N[C@H](C(=O)N[C@@H](Cc2ccccc2)C(=O)N2CCOCC2)C(C)C)cc1OC | MN | RT activity | 0.1 µM
CCC#CC1(C2CC2)NS(=O)(=O)Nc2ccc(Cl)cc21 | RF |  | 0.611 µM